In patent publication US20020164721A1, “Design of a polyepitopic construct for the induction of HLA-A2.1 restricted HIV 1 specific CTL responses using HHD mice” (priority 1999, published 2002):

Columns and labels:
[1] = system: HHD-transfected RMA-S cells loaded with variant peptides; assay: Cross-recognition of the main HIV 1 natural variants by induced CTL; format: in vivo, HHD mice; conditions: CTL induced by the immunizing peptide; FIG. 4
[2] = system: peptide-pulsed HHD-transfected RMAS cells; format: in vivo, HHD mice; conditions: for Responder/tested mice: with helper peptide, 50 μg CD8 + 140 μg HBV core T13L in IFA

Sequence: AKTPLCVTL (KLTPLCVTL) [K9L/T, HIV 1 ENV gp120 (120-128) CD8 epitopic peptide, T variant]
- cross-recognition of natural HIV 1 variants (in words) [1]: lack of cross-recognition
- Responder/tested mice [2]: 1/6

Sequence: SLYNTVATL [S9L, HIV 1 GAG p17 (77-85) CD8 epitopic peptide]
- cross-recognition of natural HIV 1 variants (in words) [1]: cross-lysed significantly all main natural variants
- effect of helper co-injection on the response (in words) ([2]; co-injected HBV core T13L): abolished
- Responder/tested mice [2]: 0/6
